Measurements taken from ChEMBL document CHEMBL4619772 (J Med Chem, 2020).

Columns and labels:
Assay type in all cases: toxicity, cell-based
[1] = Selectivity index, ratio of CC50 for human A549 cells to EC50 for HIV/EBOV-GP infected in human A549 cells
How it was run: (§1)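 Ratio CC50/EC50. CC50 is A549 cytotoxicity by CellTiter 96 aqueous nonradioactive cell proliferation assay.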

[2] = Selectivity index, ratio of CC50 for human HeLa cells to EC50 for Ebola virus 1976 Mayinga in human HeLa cells
[3] = Selectivity index, ratio of CC50 for human A549 cells to EC50 for HIV/MARV-GP infected in human A549 cells; how it was run: as §1

For `CN(C)CCOc1ccc(/C(=C(/CCCl)c2ccccc2)c2ccccc2)cc1` [TOREMIFENE], the Ratio CC50/EC50 [1] was 299, the Ratio CC50/EC50 [2] was 51 and the Ratio CC50/EC50 [3] was 299.
